pIC50: −log10 of the molar value.
Molecular target: wild-type HCV genotype 1b NS5B protein (Hepatitis C virus genotype 1b (isolate Con1) (HCV), UniProt Q9WMX2)
Experiment: HCV polymerase enzyme assay, wild-type
Type: biochemical
Conditions: read-out: Wild-Type IC50, nucleoside triphosphates, recombinant genotype 1b NS5B, tested form: triethylammonium salt
Excerpt: Test compounds in the form of nucleoside triphosphates were examined for inhibitory activity against purified HCV polymerase in a standard assay. Bacterial expression constructs encoding the approximately 65 kDa HCV genotype 1b NS5B protein were used to generate recombinant HCV polymerases (with a deletion of the 21 carboxy terminal amino acids). Both the wild-type genotype 1b protein and protein containing the S282T mutation were expressed and purified for use in the enzymatic activity assay.
The enzymatic activity assay measured the inhibitory effect of increasing concentrations of test compound on the incorporation of α-[^33P]-labeled nucleotide into trichloroacetic acid-precipitable material. Recombinant polymerase and synthetic RNA template were combined in reaction buffer containing ribonucleoside triphosphates, α-[^33P]-labeled nucleotide and eight concentrations of test compound in three-fold dilutions. […]
Reactions were terminated by the addition of ice-cold trichloroacetic acid and sodium pyrophosphate to promote precipitation of newly-synthesized ribonucleic acid. Precipitable material from the reactions was collected by filtration onto 96-well filter plates, washed extensively with water, and quantified by liquid scintillation.
The inhibitory activity of test compounds was determined by fitting results to dose-response curves using XLfit software.

C[C@@]1(Cl)[C@H](O)[C@@H](COP(=O)(O)OP(=O)(O)OP(=O)(O)O)O[C@H]1n1ccc(N)nc1=O gave a pIC50 of 5.00 to 6.00.
